Legend:
[1] = molecular target: Unchecked (Homo sapiens, UniProt P30926+P43681); test: Inhibition of human alpha4beta4 nAChR expressed in Xenopus laevis oocytes assessed as inhibition of acetylcholine-induced current response by two-electrode voltage-clamp method; conditions: oocyte
[2] = Inhibition of human alpha6/alpha3beta2beta3 nAChR expressed in Xenopus laevis oocytes assessed as inhibition of acetylcholine-induced current response by two-electrode voltage-clamp method; conditions: oocyte

The chains behind the UniProt entries cited, without tags or fusion partners. Residues count along the entry.
UniProt P30926, 22-498 limits assumed, entry inferred from the test as described: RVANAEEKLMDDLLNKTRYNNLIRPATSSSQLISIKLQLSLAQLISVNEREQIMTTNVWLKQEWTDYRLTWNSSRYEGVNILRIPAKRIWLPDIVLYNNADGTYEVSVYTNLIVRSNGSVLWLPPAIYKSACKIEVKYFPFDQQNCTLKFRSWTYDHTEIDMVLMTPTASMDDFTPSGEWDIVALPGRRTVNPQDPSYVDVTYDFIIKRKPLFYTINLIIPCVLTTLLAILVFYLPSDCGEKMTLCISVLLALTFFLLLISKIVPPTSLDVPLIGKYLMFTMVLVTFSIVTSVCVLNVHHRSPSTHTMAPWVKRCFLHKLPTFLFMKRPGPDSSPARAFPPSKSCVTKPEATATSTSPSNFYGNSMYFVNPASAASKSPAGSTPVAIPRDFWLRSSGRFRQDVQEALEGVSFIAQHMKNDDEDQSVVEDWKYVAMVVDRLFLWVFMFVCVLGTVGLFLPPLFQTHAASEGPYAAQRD
UniProt P43681, 27-627 limits assumed, entry inferred from the test as described: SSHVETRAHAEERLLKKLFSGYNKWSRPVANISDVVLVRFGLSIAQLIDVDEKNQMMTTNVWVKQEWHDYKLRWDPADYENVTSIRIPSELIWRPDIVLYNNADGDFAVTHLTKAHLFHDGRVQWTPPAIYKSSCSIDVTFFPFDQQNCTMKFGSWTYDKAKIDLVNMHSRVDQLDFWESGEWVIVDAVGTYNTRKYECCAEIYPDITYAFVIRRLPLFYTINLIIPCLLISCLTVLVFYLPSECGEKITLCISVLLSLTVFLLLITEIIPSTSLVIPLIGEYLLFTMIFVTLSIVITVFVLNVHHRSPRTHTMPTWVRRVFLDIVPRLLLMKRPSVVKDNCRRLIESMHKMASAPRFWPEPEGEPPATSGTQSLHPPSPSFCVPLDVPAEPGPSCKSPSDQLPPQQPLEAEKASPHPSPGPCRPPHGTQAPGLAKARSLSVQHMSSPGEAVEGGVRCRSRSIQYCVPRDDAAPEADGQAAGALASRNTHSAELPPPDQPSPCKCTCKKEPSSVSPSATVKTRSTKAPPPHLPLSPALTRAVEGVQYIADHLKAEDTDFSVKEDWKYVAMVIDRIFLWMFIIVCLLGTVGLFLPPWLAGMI

With `C[C@H](O)[C@H]1NC(=O)[C@@H]2NC(=O)[C@@H](NC(=O)CN)CSSC[C@H](NC(=O)[C@H](CCCNC(=N)N)NC(=O)[C@@H]3CCCN3C(=O)[C@H](CC(O)O)NC1=O)C(=O)N[C@@H](CCCNC(=N)N)C(=O)N[C@@H](Cc1ccc(O)c(I)c1)C(=O)N[C@@H](CCC(N)=O)C(=O)N[C@H](C(=O)N[C@H](CC(=O)N[C@@H](CCCNC(=N)N)C(=O)O)Cc1ccc(O)cc1)CSCS2` the IC50 [1] was > 10 µM and the IC50 [2] was > 10 µM.
